PubChem BioAssay AID624099 | ICCB-Longwood, 2012
Screen: 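Host factors E2 relies on to silence an HPV18 LCR reporter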 (primary screen). Cell system: human C33A cervical carcinoma cells (HPV-negative) stably expressing BPV1 E2 and an HPV18 LCR luciferase reporter. Reagents: siRNA pool against human genes, 40 nM. Duration: 72 h. Measurement: 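Per-well luciferase luminescence, z-scored on each plate against the plate mean and SD with control wells left out, then averaged across three replicate plates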. Reading the numbers: mean z-score and z-score: higher = stronger reporter signal, weaker E2 silencing. Call rule: 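Mean z ≥ 2 together with z ≥ 2 in two or more of the three replicates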.
Here is a random part of about 21,000 reagents. Of all reagents, 497 (2.4%) are marked active. 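Higher z means weaker E2 silencing; only reporter increases were scored, and knock-downs that hurt cell survival may mask genuine repressor factors.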 Entries without a mark were called inactive. The numbers tell different reagents against one gene apart.

SLC29A3 — mean z-score = -0.04; z-score, replicate A = -0.12; z-score, replicate B = 0.54; z-score, replicate C = -0.55
BTF3L4P3 — mean z-score = 1.41; z-score, replicate A = 1.59; z-score, replicate B = 1.15; z-score, replicate C = 1.5
CNTN2 — mean z-score = -0.44; z-score, replicate A = -0.54; z-score, replicate B = -0.24; z-score, replicate C = -0.52
ARHGAP10 — mean z-score = 0.51; z-score, replicate A = 0.42; z-score, replicate B = 0.57; z-score, replicate C = 0.54
GPC1 — mean z-score = 0.13; z-score, replicate A = 0.1; z-score, replicate B = 0.11; z-score, replicate C = 0.17
BTBD9 — mean z-score = -0.65; z-score, replicate A = -0.56; z-score, replicate B = -0.6; z-score, replicate C = -0.79
DISP3 — mean z-score = 1.08; z-score, replicate A = 0.34; z-score, replicate B = 2.41; z-score, replicate C = 0.48
TRIM73 #1 — mean z-score = 0.38; z-score, replicate A = 0.5; z-score, replicate B = 0.17; z-score, replicate C = 0.48
TRIM73 #2 — mean z-score = -1.29; z-score, replicate A = -1.32; z-score, replicate B = -1.31; z-score, replicate C = -1.25
PGLYRP1 — mean z-score = 0.89; z-score, replicate A = 0.69; z-score, replicate B = 1; z-score, replicate C = 0.98
ADGRD2 — mean z-score = -0.08; z-score, replicate A = 0.1; z-score, replicate B = -0.25; z-score, replicate C = -0.1
OR4K13 — mean z-score = -0.93; z-score, replicate A = -1.2; z-score, replicate B = -0.52; z-score, replicate C = -1.07
C17orf67 — mean z-score = -0.59; z-score, replicate A = 0.05; z-score, replicate B = -0.74; z-score, replicate C = -1.08
HLA-DRA — mean z-score = 0.94; z-score, replicate A = 0.94; z-score, replicate B = 0.91; z-score, replicate C = 0.96
ZNF66 — mean z-score = 0.91; z-score, replicate A = 1.22; z-score, replicate B = 0.63; z-score, replicate C = 0.89
COX15 — mean z-score = -0.67; z-score, replicate A = -0.69; z-score, replicate B = -0.69; z-score, replicate C = -0.62
NDNF — mean z-score = 0.09; z-score, replicate A = -0.03; z-score, replicate B = 0.13; z-score, replicate C = 0.18
MATN4 — mean z-score = -0.25; z-score, replicate A = 0.07; z-score, replicate B = -0.23; z-score, replicate C = -0.59
KPNB1 — mean z-score = -1.88; z-score, replicate A = -1.78; z-score, replicate B = -2.07; z-score, replicate C = -1.77
DUOX1 — mean z-score = -0.43; z-score, replicate A = -0.3; z-score, replicate B = -0.34; z-score, replicate C = -0.65
DOCK10 — mean z-score = -0.48; z-score, replicate A = -0.54; z-score, replicate B = -0.61; z-score, replicate C = -0.3
